≈ marks a conversion by molar mass, not a printed value.
How the values were obtained:
[1] = test system: Pseudomonas aeruginosa A 1058; assay: MIC, agar serial dilution test; type: cell-based
Proteus mirabilis A 1200 [2] = assay: MIC, agar serial dilution test; type: cell-based
[3] = test system: Salmonella typhimurium R 172; assay: MIC, agar serial dilution test; type: cell-based
[4] = test system: Pseudomonas aeruginosa 2396; assay: MIC, agar serial dilution test; type: cell-based
Proteus mirabilis H 3 = assay: MIC, agar serial dilution test; type: cell-based
Haemophilus suis A 2096 [5] = assay: MIC, agar serial dilution test; type: cell-based
[6] = test system: Diplococcus pneumoniae L 54; assay: MIC, agar serial dilution test; type: cell-based
Proteus rettgeri A 821 [7] = assay: MIC, agar serial dilution test; type: cell-based
Proteus mirabilis L 93 = assay: MIC, agar serial dilution test; type: cell-based
[8] = test system: Streptococcus faecalis L 80; assay: MIC, agar serial dilution test; type: cell-based
[9] = test system: Klebsiella pneumoniae A 809; assay: MIC, agar serial dilution test; type: cell-based
Haemophilus suis A 2096 [10] = assay: MIC, micro serial dilution test; type: cell-based; settings: micro serial dilution test (brackets)
[11] = test system: Pseudomonas aeruginosa A 1058; assay: MIC, micro serial dilution test; settings: micro serial dilution test (brackets)
Proteus mirabilis A 1200 [12] = assay: MIC, micro serial dilution test; settings: micro serial dilution test (brackets)
[13] = test system: Staphylococcus aur. A 2001; assay: MIC, micro serial dilution test; settings: micro serial dilution test (brackets), tables B-E
[14] = test system: Staphylococcus aur. A 355; assay: MIC, micro serial dilution test; settings: micro serial dilution test (brackets), tables B-E
Proteus mirabil. L 93 = assay: ABA test, antibacterial activity in urine of mice; settings: urine of 21/2 hr, disc 7 mm
Proteus mirabil. H 3 = assay: ABA test, antibacterial activity in urine of mice; settings: urine of 21/2 hr, disc 7 mm
[15] = test system: Staphylococcus aur. A 2001; assay: ABA test, antibacterial activity in urine of mice; settings: urine of 21/2 hr, disc 7 mm
[16] = test system: Staphylococcus aur. A 355; assay: ABA test, antibacterial activity in urine of mice; settings: urine of 21/2 hr, disc 7 mm
Escherichia coli U 20 [17] = assay: ABA test, antibacterial activity in urine of mice; settings: urine of 21/2 hr, disc 7 mm
Salmon. typhimur. R 172 = assay: ABA test, antibacterial activity in urine of mice; settings: urine of 21/2 hr, disc 7 mm
[18] = test system: Pseudomonas aerug. A 1058; assay: ABA test, antibacterial activity in urine of mice; settings: urine of 21/2 hr, disc 7 mm
Proteus morganii 2241 = assay: ABA test, antibacterial activity in urine of mice; settings: urine of 21/2 hr, disc 7 mm
Proteus rettgeri A 821 [19] = assay: ABA test, antibacterial activity in urine of mice; settings: urine of 21/2 hr, disc 7 mm
Klebsiella pneum. A 809 = assay: ABA test, antibacterial activity in urine of mice; settings: urine of 21/2 hr, disc 7 mm
[20] = test system: Staphylococcus aur. A 2001; assay: MIC, agar serial dilution test; settings: tables B-E
Salmonella dublin P 43 = assay: MIC, agar serial dilution test
[21] = test system: Staphylococcus aur. A 355; assay: MIC, agar serial dilution test; settings: tables B-E
Escherichia coli U 20 [22] = assay: MIC, agar serial dilution test

CCOP(=O)(O)NC(=O)N[C@@H](C(=O)N[C@@H]1C(=O)N2[C@@H]1SC(C)(C)[C@@H]2C(=O)O)c1ccc(O)cc1 gave an MIC ([1]; agar serial dilution) of 3 µg/mL (≈ 5.81 µM), an MIC ([1]; tables B-E) of 3 µg/mL (≈ 5.81 µM) and an MIC (Proteus mirabilis A 1200 [2]; agar serial dilution) of 0.75 µg/mL (≈ 1.45 µM). For the same molecule, the MIC (Proteus mirabilis A 1200 [2]; tables B-D, column beside protection test) was 0.75 µg/mL (≈ 1.45 µM), the MIC ([3]; agar serial dilution) was 3 µg/mL (≈ 5.81 µM) and the MIC ([3]; tables B-E) was 6 µg/mL (≈ 11.6 µM). The MIC [4] was 3 µg/mL (≈ 5.81 µM), the MIC (Proteus mirabilis H 3; agar serial dilution) was 0.5 µg/mL (≈ 0.968 µM) and the MIC (Proteus mirabilis H 3; tables B-E) was 0.5 µg/mL (≈ 0.968 µM). For the same molecule, the MIC (Haemophilus suis A 2096 [5]) was 0.45 µg/mL (≈ 0.871 µM), the MIC [6] was 0.75 µg/mL (≈ 1.45 µM) and the MIC (Proteus rettgeri A 821 [7]; agar serial dilution) was 0.06 µg/mL (≈ 0.116 µM). The MIC (Proteus rettgeri A 821 [7]; tables B-E) was 0.06 µg/mL (≈ 0.116 µM), the MIC (Proteus mirabilis L 93; agar serial dilution) was 0.12 µg/mL (≈ 0.232 µM) and the MIC (Proteus mirabilis L 93; tables B-E) was 0.12 µg/mL (≈ 0.232 µM). The MIC [8] was 6 µg/mL (≈ 11.6 µM), the MIC ([9]; agar serial dilution) was 100 µg/mL (≈ 194 µM) and the MIC ([9]; tables B-E) was > 100 µg/mL. The MIC (Haemophilus suis A 2096 [10]) was 1.2 µg/mL (≈ 2.32 µM), the MIC [11] was 6 µg/mL (≈ 11.6 µM) and the MIC ([11]; tables B-E) was 6 µg/mL (≈ 11.6 µM). For the same molecule, the MIC (Proteus mirabilis A 1200 [12]) was 0.3 µg/mL (≈ 0.581 µM), the MIC (Proteus mirabilis A 1200 [12]; tables B-D) was 0.3 µg/mL (≈ 0.581 µM) and the MIC [13] was 11 µg/mL (≈ 21.3 µM). The MIC [14] was 30 µg/mL (≈ 58.1 µM), the “ABA, inhibition zone of urine” value (Proteus mirabil. L 93; 100 mg/kg i.p.) was 31 mm and the “ABA, inhibition zone of urine” value (Proteus mirabil. L 93; 100 mg/kg or.) was 16 mm. The “ABA, inhibition zone of urine” value (Proteus mirabil. H 3; 100 mg/kg i.p.) was 26 mm, the “ABA, inhibition zone of urine” value (Proteus mirabil. H 3; 100 mg/kg or.) was 13 mm and the “ABA, inhibition zone of urine” value ([15]; 100 mg/kg i.p.) was 22 mm. The “ABA, inhibition zone of urine” value ([15]; 100 mg/kg or.) was 13 mm, the “ABA, inhibition zone of urine” value ([16]; 100 mg/kg i.p.) was 11 mm and the “ABA, inhibition zone of urine” value ([16]; 100 mg/kg or.) was 7 mm. For the same molecule, the “ABA, inhibition zone of urine” value (Escherichia coli U 20 [17]; 100 mg/kg i.p.) was 24 mm, the “ABA, inhibition zone of urine” value (Escherichia coli U 20 [17]; 100 mg/kg or.) was 10 mm and the “ABA, inhibition zone of urine” value (Salmon. typhimur. R 172; 100 mg/kg i.p.) was 26 mm. For the same molecule, the “ABA, inhibition zone of urine” value (Salmon. typhimur. R 172; 100 mg/kg or.) was 11 mm, the “ABA, inhibition zone of urine” value ([18]; 100 mg/kg i.p.) was 19 mm and the “ABA, inhibition zone of urine” value ([18]; 100 mg/kg or.) was 8 mm. The “ABA, inhibition zone of urine” value (Proteus morganii 2241; 100 mg/kg i.p.) was 7 mm, the “ABA, inhibition zone of urine” value (Proteus morganii 2241; 100 mg/kg or.) was 7 mm and the “ABA, inhibition zone of urine” value (Proteus rettgeri A 821 [19]; 100 mg/kg i.p.) was 31 mm. The “ABA, inhibition zone of urine” value (Proteus rettgeri A 821 [19]; 100 mg/kg or.) was 18 mm, the “ABA, inhibition zone of urine” value (Klebsiella pneum. A 809; 100 mg/kg i.p.) was 7 mm and the “ABA, inhibition zone of urine” value (Klebsiella pneum. A 809; 100 mg/kg or.) was 7 mm. For the same molecule, the MIC [20] was 25 µg/mL (≈ 48.4 µM), the MIC (Salmonella dublin P 43) was 3 µg/mL (≈ 5.81 µM) and the MIC [21] was 100 µg/mL (≈ 194 µM). The MIC (Escherichia coli U 20 [22]; agar serial dilution) was 3 µg/mL (≈ 5.81 µM) and the MIC (Escherichia coli U 20 [22]; tables B-E) was 3 µg/mL (≈ 5.81 µM).

Reference: US4067986A, “Novel penicillanic acid” (Gist-Brocades N.V., priority 1974, dated 1978)
